Compound potency records, mixed from different reports. Data source: NIAID ChemDB in PubChem.

Shared fields: enzyme or target tests; agent: HIV-1; target: gp120; endpoint: IC50

Rows are shuffled and stem from different studies. ICn: concentration for n% inhibition. An empty or dashed field is not shown.

| structure | strain or isolate | conditions | method | result |
|---|---|---|---|---|
| O=C1OCC2OC(O)C(O)C(O)C2OC(=O)c2cc(O)c(O)c(O)c2-c2c(O)c(O)c3oc(=O)c4c(c(O)c(O)c5oc(=O)c2c3c54)-c2c1cc(O)c(O)c2O |  |  | fluorescence | 0.5 µM |
| CCCCCCCCC[C@H]1CC2CCC3C(C(=O)OCCCCCCCCCC4N=C(N)N5CCCC5=C4C(=O)OCCCCN=C(N)N)[C@@H](C)N=C(N1)N23 |  |  | ELISA | 29 µM |
| C=CC1=C(C)C2=NC1=CC1=NC(=Cc3[n-]c4c(c3C)=C([O-])[C@H](C(=O)OC)C=4C3=NC(=C2)[C@@H](C)[C@@H]3CCC(=O)OC/C=C(\C)CCCC(C)CCCC(C)CCCC(C)C)C(CC)=C1C.[Mg+2] |  |  |  | >60 µg/mL |
| CCCCCCCCCC1N=C(N)N2CCCC2=C1C(=O)OCCCCN=C(N)N |  |  | ELISA | >100 µM |
| C[n+]1ccc(-c2c3nc(c(-c4cc[n+](C)cc4)c4ccc([nH]4)c(-c4cc[n+](C)cc4)c4nc(c(-c5cc[n+](C)cc5)c5ccc2[nH]5)C=C4)C=C3)cc1 |  |  |  | >60 µg/mL |
| O=C1OC(C2OC(=O)c3cc(O)c(O)c(O)c3-c3c(O)c(O)c4oc(=O)c5c(c(O)c(O)c6oc(=O)c3c4c65)-c3c(cc(O)c(O)c3O)C(=O)OCC2O)C2OC(=O)c3c(c(O)c(O)c(O)c3C2O)-c2c1cc(O)c(O)c2O |  |  | fluorescence | 0.14 µM |
| COc1ccc(CCNc2nc(N3CCc4cc(OC)c(OC)cc4C3)nc3cc(OC)c(OC)cc23)cc1OC |  |  | ELISA | 32.5 µg/mL |
| CSCC[C@H](NC(=O)[C@@H]1CCCN1C(=O)[C@H](Cc1cnc[nH]1)NC(=O)[C@H](Cc1c[nH]c2ccccc12)NC(=O)[C@@H](N)Cc1ccccc1)C(=O)N[C@@H](Cc1cnc[nH]1)C(=O)N[C@@H](CC(=O)O)C(=O)O | SF2 |  | ELISA | 68 µM |
| O=S(=O)(O)c1ccc(-c2c3nc(c(-c4ccc(S(=O)(=O)O)cc4)c4ccc([nH]4)c(-c4ccc(S(=O)(=O)O)cc4)c4nc(c(-c5ccc(S(=O)(=O)O)cc5)c5ccc2[nH]5)C=C4)C=C3)cc1 |  |  |  | >60 µg/mL |
| O=C(O[C@@H]1[C@H](O)C[C@@](OC(=O)c2cc(O)c(O)c(O)c2)(C(=O)O)C[C@H]1OC(=O)c1cc(O)c(O)c(O)c1)c1cc(O)c(O)c(O)c1 |  |  | fluorescence | 0.7 µM |
| CC1=C(CCC(=O)O)c2cc3nc(cc4[nH]c(cc5[nH]c(cc1n2)c(CCC(=O)O)c5CC(=O)O)c(CCC(=O)O)c4C)C(CCC(=O)O)=C3C |  |  |  | >60 µg/mL |
| COc1ccc(OC)c2c(C(=O)C(=O)N3CCN(C(=O)c4ccccc4)CC3)c[nH]c12 | JR-FL |  | ELISA | 0.024 µM |
| CC1(C)CC(NC(=O)C(=O)Nc2ccc(Br)cc2)CC(C)(C)N1 | MN |  | ELISA | 4.21 µM |
| O=S(=O)(O)c1cc(N=C=S)ccc1/C=C/c1ccc(N=C=S)cc1S(=O)(=O)O |  |  | binding | >10 µM |
| C[C@@H](O)[C@H](NC(=O)[C@H](CC(=O)O)NC(=O)[C@H](Cc1c[nH]c2ccccc12)NC(=O)[C@@H]1CCCN1C(=O)[C@H](Cc1c[nH]c2ccccc12)NC(=O)[C@@H](N)CO)C(=O)N[C@@H](Cc1c[nH]c2ccccc12)C(=O)O | HXB2 |  | ELISA | >130 µM |
| COC(=O)C(=O)N1CCC[C@@H]1C(=O)N[C@H](Cc1ccccc1)C(=O)OCc1ccccc1 |  | 3% FBS | ELISA | >500 µM |
| C1=Cc2nc1c(-c1ccccc1)c1ccc([nH]1)c(-c1ccccc1)c1nc(c(-c3ccccc3)c3ccc([nH]3)c2-c2ccccc2)C=C1 |  |  |  | >60 µg/mL |
| COC(=O)C(=O)N1CCC[C@H]1C(=O)N[C@@H](Cc1ccccc1)C(=O)OCc1ccccc1 |  |  | ELISA | >400 µg/mL |
| O=C(C(=O)N1CCN(C(=O)c2ccccc2)CC1)c1c[nH]c2ccccc12 | YU2 |  | ELISA | <1 µM |

2 of the rows above, restated:

structure,strain or isolate,conditions,method,result
O=S(=O)(O)c1ccc(-c2c3nc(c(-c4ccc(S(=O)(=O)O)cc4)c4ccc([nH]4)c(-c4ccc(S(=O)(=O)O)cc4)c4nc(c(-c5ccc(S(=O)(=O)O)cc5)c5ccc2[nH]5)C=C4)C=C3)cc1,,,,>60 µg/mL
C[n+]1ccc(-c2c3nc(c(-c4cc[n+](C)cc4)c4ccc([nH]4)c(-c4cc[n+](C)cc4)c4nc(c(-c5cc[n+](C)cc5)c5ccc2[nH]5)C=C4)C=C3)cc1,,,,>60 µg/mL